Measured values from several laboratories, pooled; numbers as filed in NIAID ChemDB.

Shared fields: tests in culture; agent: HIV-1

Two numbers with a dash give a range or band. An empty or dashed field is not shown. Rows are shuffled and stem from different studies. ECn: concentration that inhibits the pathogen or its effect by n%.

smiles,measure,method,cells,strain,changes,value
Nc1nc(=O)n([C@@H]2CC[C@H](CO)O2)cc1F,EC50,MTT,MT-4,RF,-,1.5 µM
c1ccc(CO[C@@H]2[C@H](OCc3ccccc3)[C@@H]3OC[C@@H](O3)[C@H]2OCc2ccccc2)cc1,EC50,MTT,-,IIIB,-,2.14 µg/mL
CCOC(=O)c1cnn2c1n[n+]([O-])c1ccc(Cl)cc12,EC50,cytopathic effect / MTT,MT-4,IIIB,-,>13 µM
O=c1sc2nc3c(c(=S)n2/c1=C/c1ccc(Cl)cc1)C1=C(CCC/C1=C\c1ccncc1)C(c1ccncc1)S3,EC50,MTT,T4,-,-,71.6 µM
CCc1[nH]c(=S)n(Nc2cccc(Cl)c2)c1-c1ccccc1,EC50,cytopathic effect / MTT,MT-4,NL4-3,-,>38.96 µM
CSCO[C@]1(C)COC(C)(CC(=O)OC[C@@H]2C=C[C@H](n3cnc4c(N)ncnc43)O2)C1,EC50,cytopathic effect,CEM + CEM/O,-,-,50 µM
CNc1ncnc2c1ncn2[C@H]1CC[C@@H](CO)O1,EC90,p24,JM,GB8,-,20 µM
O=[N+]([O-])c1ccc2c(c1)[n+]([O-])nc1c([N+](=O)[O-])cnn12,EC50,cytopathic effect / MTT,MT-4,IIIB,-,>1.4 µM
c1ccc(CSc2ccccn2)cc1,EC50,syncytia,CEM,IIIB,-,>20 µg/mL
CCOCn1c(Sc2ccccc2)c(CC)c(=O)[nH]c1=O,EC50,syncytia,CEM,IIIB,RT-Y181I,1.1 µM
S=c1[nH]c(-c2ccccc2)c(-c2ccccc2)n1Nc1cccc(Cl)c1,EC50,cytopathic effect / MTT,MT-4,IIIB,-,>36.31 µM
CCN1c2ncc(CCOc3ccc(-c4ccc(CC(=O)O)cc4)cc3C)cc2C(=O)N(C)c2cccnc21,EC50,p24,C8166,IIIB,-,<0.01 µM
O=C(O)/C=C/c1cn([C@@H]2O[C@H](CO)[C@@H](CO)[C@@H]2O)c(=O)[nH]c1=O,EC50,MTT,MT-4,-,-,>100 µM
CCc1c(Cc2cc(C)cc(C)c2)n(COCCO)c(=O)[nH]c1=O,EC50,syncytia,CEM,IIIB TIBO R82913-resistant (RT K103N),RT-K103N,2 µM
Cc1cn([C@H]2C=C[C@@H](COC(=O)CC3(C)C[C@](C)(O)CO3)O2)c(=O)[nH]c1=O,EC50,cytopathic effect,C8166,-,-,8 µM
Cc1ccc(C(C)S(=O)c2cccc[n+]2[O-])cc1,EC50,syncytia,CEM,IIIB,-,>0.032 µg/mL
CCc1c(Sc2cc(C)cc(C)c2)n(COCCO)c(=O)[nH]c1=O,EC50,syncytia,CEM,IIIB,RT-Y188H,≥10 µM
CCCCCCCC(Sc1cccc[n+]1[O-])c1cc(C)c(C)c(C)c1,EC50,syncytia,CEM,IIIB,-,>20 µg/mL
COc1cccc2ccc(C(CC(=O)Nc3ccccc3)Nc3ccccc3)nc12,EC50,luminescence,TZM-bl,UG070,-,>100 µM
Cc1cn([C@@H]2O[C@@H]3COC(O)[C@@H]3[C@@H]2O)c(=O)[nH]c1=O,EC50,MTT,MT-4,-,-,>100 µM
CCOC1N=C2C3=C(N=C(C)N2N1c1ccccc1)SC(c1ccncc1)C1=C3/C(=C/c2ccncc2)CCC1,EC50,MTT,T4,-,-,69.8 µM
O=[N+]([O-])c1ccc2c(c1)nnc1c(Br)cnn12,EC50,cytopathic effect / MTT,MT-4,IIIB,-,>200 µM
COc1cccc2ccc(/C=C/C(=O)Nc3ccccc3)nc12,EC50,luminescence,TZM-bl,UG070,-,12.68 µM
CC(C)=CCOc1cc(NC(=S)c2ccoc2C)ccc1Cl,EC50,cytopathic effect / XTT,AA5,IIIB,-,0.02 µM
CC(C)c1ccc(C(C)C)c(CS(=O)(=O)c2cccc[n+]2[O-])c1,EC50,syncytia,CEM,IIIB,-,≥4 µg/mL
CCN1c2ncc(CCOc3ccc(S(=O)(=O)NCC(=O)O)cc3C)cc2C(=O)N(C)c2cccnc21,EC50,p24,C8166,IIIB,-,>0.05 µM
Cc1ccc(/C=c2\c(=O)sc3nc4c(c(=S)n23)C2=C(CCC/C2=C\c2ccncc2)C(c2ccncc2)S4)cc1,EC50,MTT,T4,-,-,71.3 µM
CN1CCc2c(c(O)c3n2CCN(Cc2ccc(F)cc2)C3=O)C1=O,EC50,p24,MT-4,-,-,<10 µM
[O-][n+]1nc2c(-c3ccc(F)cc3)cnn2c2ccccc21,EC50,cytopathic effect / MTT,MT-4,IIIB,-,>200 µM
COc1cccc2ccc(-c3nnc(-c4ccc(C(F)(F)F)cc4)o3)nc12,EC50,luminescence,TZM-bl,UG070,-,121 µM
COc1cc(-c2ccc(N=Nc3ccc4c(S(=O)(=O)O)cc(S(=O)(=O)O)c(N)c4c3O)c(OC)c2)ccc1N=Nc1ccc2c(S(=O)(=O)O)cc(S(=O)(=O)O)c(N)c2c1O,EC50,cytopathic effect / XTT,PBMC,BaL,-,1.8 µM
COc1cc(CS(=O)(=O)c2cccc[n+]2[O-])cc(OC)c1OC,EC50,syncytia,CEM,IIIB,-,≥20 µg/mL
O=c1ccn([C@@H]2O[C@H](CO)[C@H](CO)[C@@H]2O)c(=O)[nH]1,EC50,MTT,MT-4,-,-,>100 µM
COc1ccc[n+]([O-])c1SCc1cc(C)ccc1C,EC50,syncytia,CEM,IIIB,-,1.4 µg/mL
O=[N+]([O-])c1cnn2c1n[n+]([O-])c1ccc(Cl)cc12,EC50,cytopathic effect / MTT,MT-4,IIIB,-,>5.7 µM
Cc1cn([C@@H]2O[C@H](CO)[C@@H](C3SCN(C)CS3)[C@@H]2O)c(=O)[nH]c1=O,EC50,MTT,MT-4,-,-,>100 µM
Cc1[nH]c(=S)n(Nc2ccccc2Cl)c1-c1ccccc1,EC50,cytopathic effect / MTT,MT-4,IIIB,-,>162 µM
Cc1ccc(C)c(C(C#N)Sc2cccc[n+]2[O-])c1,EC50,syncytia,CEM,IIIB,-,>4 µg/mL
CC(C)=CCOc1cc(NC(=S)c2ccsc2C)ccc1Cl,EC50,cytopathic effect / XTT,CEM + CEM-SS,UC10-resistant (RT Y181C K101E),RT-Y181C K101E,1.5 µM
CC(C)c1c(Sc2ccccc2)n(COCCO)c(=O)[nH]c1=O,EC50,syncytia,CEM,IIIB,RT-Y188H,>10 µM
Cc1ccc(C)c(C(Sc2cccc[n+]2[O-])c2ccccc2)c1,EC50,syncytia,CEM,IIIB,-,≥20 µg/mL
Cn1cc(NC(=O)Nc2cc(C(=O)Nc3cc(C(=O)Nc4ccc(S(=O)(=O)O)c5cc(S(=O)(=O)O)cc(S(=O)(=O)O)c45)n(C)c3)n(C)c2)cc1C(=O)Nc1cc(C(=O)Nc2ccc(S(=O)(=O)O)c3cc(S(=O)(=O)O)cc(S(=O)(=O)O)c23)n(C)c1,EC50,cytopathic effect / XTT,CEM + CEM-SS,RF,-,31.6 µM
CCN1c2ncc(CCOc3ccc(-c4cc(C(=O)O)on4)cc3C)cc2C(=O)N(C)c2cccnc21,EC50,p24,C8166,IIIB,-,>0.05 µM
COC(=O)C(c1ccccc1C)S(=O)c1cccc[n+]1[O-],EC50,syncytia,CEM,IIIB,-,>20 µg/mL
COc1cccc2ccc(/C=C/C(=O)Nc3ccccc3F)nc12,EC50,luminescence,TZM-bl,UG070,-,2.57 µM
Nc1nc2c(ncn2[C@@H]2C[C@H](O)[C@H](CO)O2)c(=O)[nH]1,EC50,cytopathic effect / MTT,CEM + CEM-SS,-,-,>100 µM
CC(C)CN(C[C@@H](O)[C@H](Cc1ccccc1)NC(=O)O[C@H]1CO[C@H]2OCC[C@H]21)S(=O)(=O)c1ccc(C(N)=O)cc1,EC50,p24 / luminescence,MT-2,LAI,-,0.093 µM
O=c1ccn([C@@H]2OC3COC(O)C3[C@@H]2O)c(=O)[nH]1,EC50,MTT,MT-4,-,-,>100 µM
CC(C)c1ccc(C(C)C)c(CS(=O)c2cccc[n+]2[O-])c1,EC50,syncytia,CEM,IIIB,-,≥4 µg/mL
Cn1cc(NC(=O)Nc2cc(C(=O)Nc3cc(C(=O)Nc4ccc(P(=O)(O)O)c5cc(P(=O)(O)O)ccc45)n(C)c3)n(C)c2)cc1C(=O)Nc1cc(C(=O)Nc2ccc(P(=O)(O)O)c3cc(P(=O)(O)O)ccc23)n(C)c1,EC50,cytopathic effect / XTT,PBMC,BaL,-,6.1 µM
CCOCn1c(Cc2ccccc2)c(CC)c(=O)[nH]c1=O,EC50,syncytia,CEM,IIIB,Nevirapine resistant (RT Y181C),0.52 µM
CCN1c2ncc(CCOc3ccc(-c4ccncc4)cc3)cc2C(=O)N(C)c2cccnc21,EC50,p24,C8166,-,RT-K103N Y181C,0.01–0.05 µM
CC(C)c1c(Sc2ccccc2)n(COCc2ccccc2)c(=S)[nH]c1=O,EC50,syncytia,CEM,IIIB,RT-Y181C,0.4 µM
CCN(CC)c1ncnc2c1ncn2[C@H]1CC[C@@H](CO)O1,EC90,cytopathic effect / MTT / p24,C8166,RF,-,100 µM
Cn1cc(NC(=O)Nc2cc(C(=O)Nc3cc(C(=O)Nc4cc(P(=O)(O)O)c5cccc(P(=O)(O)O)c5c4)n(C)c3)n(C)c2)cc1C(=O)Nc1cc(C(=O)Nc2cc(P(=O)(O)O)c3cccc(P(=O)(O)O)c3c2)n(C)c1,EC50,cytopathic effect / XTT,CEM + CEM-SS,RF,-,6.6 µM
O=c1[nH]c(=O)n([C@@H]2O[C@H](CO)[C@@H](CO)[C@@H]2O)cc1I,EC50,MTT,MT-4,-,-,>100 µM
CCc1c(Sc2ccccc2)n(COCc2ccccc2)c(=S)[nH]c1=O,EC50,syncytia,CEM,IIIB (TIBO 82150) (RT-L100I),RT-L100I,0.03 µM
CCOC(=O)c1cnn2c1nnc1ccc(Cl)cc12,EC50,cytopathic effect / MTT,MT-4,IIIB,-,>5.2 µM
COc1ccc(OC)c(CS(=O)c2cccc[n+]2[O-])c1,EC50,syncytia,CEM,IIIB,-,>100 µg/mL
N#Cc1cnn2c1n[n+]([O-])c1ccc(Cl)cc12,EC50,cytopathic effect / MTT,MT-4,IIIB,-,>25 µM
CCOc1cccnc1SCc1ccccc1,EC50,syncytia,CEM,IIIB,-,33 µg/mL
Cc1cccc(Nn2c(C)c(C)[nH]c2=S)c1,EC50,cytopathic effect / MTT,MT-4,NL4-3,-,>360 µM
Cc1ccc(CSc2ccccn2)cc1C,EC50,syncytia,CEM,IIIB,-,>4 µg/mL
Cc1cn([C@@H]2O[C@H](CO)[C@@H](CO)[C@@H]2O)c(=O)[nH]c1=O,EC50,MTT,MT-4,-,-,>100 µM
CCOCn1c(Sc2ccccc2)c(C(C)C)c(=O)[nH]c1=O,EC50,syncytia,CEM,IIIB,RT-Y181C,1.3 µM
N#C/C(=C/c1ccc(Cl)cc1Cl)Sc1cccc[n+]1[O-],EC50,syncytia,CEM,IIIB,-,>0.8 µg/mL

For reference, 7 entries again:

smiles	measure	method	cells	strain	changes	value
Cc1[nH]c(=S)n(Nc2ccccc2Cl)c1-c1ccccc1	EC50	cytopathic effect / MTT	MT-4	IIIB	-	>162 µM
CCN1c2ncc(CCOc3ccc(-c4ccc(CC(=O)O)cc4)cc3C)cc2C(=O)N(C)c2cccnc21	EC50	p24	C8166	IIIB	-	<0.01 µM
CCOc1cccnc1SCc1ccccc1	EC50	syncytia	CEM	IIIB	-	33 µg/mL
CCN1c2ncc(CCOc3ccc(S(=O)(=O)NCC(=O)O)cc3C)cc2C(=O)N(C)c2cccnc21	EC50	p24	C8166	IIIB	-	>0.05 µM
O=C(O)/C=C/c1cn([C@@H]2O[C@H](CO)[C@@H](CO)[C@@H]2O)c(=O)[nH]c1=O	EC50	MTT	MT-4	-	-	>100 µM
CCc1c(Sc2cc(C)cc(C)c2)n(COCCO)c(=O)[nH]c1=O	EC50	syncytia	CEM	IIIB	RT-Y188H	≥10 µM
CC(C)=CCOc1cc(NC(=S)c2ccsc2C)ccc1Cl	EC50	cytopathic effect / XTT	CEM + CEM-SS	UC10-resistant (RT Y181C K101E)	RT-Y181C K101E	1.5 µM